Measurements reported in patent US12673036B2, “Method of using L-triiodothyronine (T3) for the treatment of tissue hypoxia and sepsis” (UNI-PHARMA KLEON TSETIS PHARMACEUTICAL LABORATORIES S.A., priority 2020, dated 2026).

Test system: critically ill patients with COVID-19 infection

N[C@@H](Cc1cc(I)c(Oc2ccc(O)c(I)c2)c(I)c1)C(=O)O [T3, L-triiodothyronine]
tachycardia, atrial fibrillation, ventricular arrhythmias (heart rate) (first 48 hours): did not induce significant tachycardia, atrial fibrillation, or ventricular arrhythmias
d-dimers levels (first 48 hours after high-dose T3): remain unchanged
safety, serious side effects (arrhythmias, pulmonary embolism) (intubated COVID-19 patients): safe, without serious side effects
